Compound potency records, mixed from different reports. Data source: NIAID ChemDB in PubChem.

All rows: tests on isolated targets

Rows are shuffled and stem from different studies. Fold resistance: result on the changed form divided by that on wild type. Inhibition is in % at the dose shown (toxicity tests: loss of growth or viability). Blank or dashed fields: not listed here. ICn: concentration for n% inhibition.

structure	read-out	dose	method	target	strain or isolate	agent	changes	result
O=C(c1ccc([N+](=O)[O-])o1)N1CCN(c2nc3c(Cl)cccc3s2)CC1	IC50	-	-	Thioredoxin reductase	-	Plasmodium vivax	-	5.2 µM
CCCCCCCC/C=C/CC/C=C/[C@H]1C[C@H]([C@](O)(CC(=O)O[C@@H](C(=O)O)[C@H](CC(=O)O)C(=O)O)C(=O)O)C(=O)O1	IC50	-	-	Geranylgeranyltransferase I	-	Cryptococcus neoformans	-	3 µM
Oc1ccc(CN[C@@H]2[C@H](O)[C@@H](O)[C@H](O)[C@@H]3O[C@H]23)cc1	inhibition	100 µM	-	Beta-D-xylosidase	-	Aspergillus niger	-	0%
Nc1cc(CCc2ccc(F)cc2)nc(N)n1	IC50	-	-	Dihydrofolate reductase	TYPE I	Cryptosporidium parvum	-	>1000 µM
Fc1ccc(-c2cncc(N3CCN(c4cccc(C(F)(F)F)c4)CC3)n2)cc1Cl	IC50	-	-	UL97 kinase	-	Cytomegalovirus	-	<100 µM
CCC1(c2cc(Cl)cc(Cl)c2)C(C#N)=C(N)Oc2n[nH]c(C)c21	IC50	-	absorbance	Serine hydroxymethyltransferase	-	Plasmodium falciparum	-	0.28 µM
CN(C)c1ccc(-c2cncc(N3CCN(c4cccc(C(F)(F)F)c4)CC3)n2)cc1	IC50	-	-	UL97 kinase	-	Cytomegalovirus	-	<100 µM
O=C(O)c1ccc(N2C(=O)C(=Cc3ccc(-c4cccc(Cl)c4Cl)o3)SC2=S)cc1	IC50	-	-	NS5 polymerase	-	Bovine viral diarrhea virus	-	≤1 µM
C[C@H](NC(=O)OC(C)(C)C)c1nc2ccsc2c(=O)o1	IC50	-	HPLC	CMV protease	-	Cytomegalovirus	-	>10 µM
Nc1nc(-c2ccc(NC(=O)CN(Cc3ccncc3)C(=O)C3CCCCC3)cc2)cs1	IC50	-	-	Primase	-	Herpes simplex virus 1	-	0.043 µM
Nc1ncc(CNc2ccc(C(=O)N[C@@H](CCC(=O)O)C(=O)O)cc2)c(N)n1	IC50	-	-	Dihydrofolate reductase	TYPE II	Cryptosporidium parvum	-	0.1 µM
O=C1C=CC(=C(c2ccc(O)cc2)c2ccc(O)cc2)C=C1	IC50	-	flow cytometry	CD4	-	-	-	>20 µM
Nc1nc2c(ncn2[C@H]2CO[C@@H](COP(=O)(O)OP(=O)(O)OP(=O)(O)O)O2)c(=O)[nH]1	Ki	-	radiometric	Reverse transcriptase	-	HIV	RT-L74V	0.067 µM
Cc1ccc(-c2ccc(C=C3SC(=S)NC3=O)s2)cc1	IC50	-	-	NS5 polymerase	-	Bovine viral diarrhea virus	-	≤1 µM
O[C@@H]1[C@@H](O)[C@@H](NCc2ccc(C(F)(F)F)cc2)[C@H]2O[C@H]2[C@H]1O	inhibition	100 µM	-	Beta-D-xylosidase	-	Aspergillus niger	-	42%
COc1c(N2CCNC(C)C2)c(F)cc2c(=O)c(C(=O)O)cn(C3CC3)c12	IC50	-	-	DNA gyrase	-	Streptococcus pneumoniae	-	46.4 µg/mL
Cc1onc(-c2ccccc2Cl)c1C(=O)N[C@@H]1C(=O)N2[C@@H]1SC(C)(C)[C@@H]2C(=O)O	IC50	-	-	Beta-lactamase	TB2	Mycobacterium tuberculosis	-	1 µg/mL
Cc1ccc(N=Nc2c(N)nc(N)nc2N)cc1C	IC50	-	-	Dihydrofolate reductase	TYPE I	Cryptosporidium parvum	-	>1000 µM
N[C@@H]1[C@H](O)[C@@H](O)[C@H](O)[C@@H]2O[C@H]12	inhibition	100 µM	-	Beta-D-xylosidase	-	Aspergillus niger	-	0%
CCc1c(Cl)nc(N)nc1Nc1ccc(Br)cc1	IC50	-	-	Dihydrofolate reductase	TYPE I	Cryptosporidium parvum	-	>200 µM
O=C(O)Cc1ccc(O)c(O)c1	inhibition	100 µg/mL	flow cytometry	CD4	-	-	-	55%
O=C(O)[C@H]1/C(=C/CO)O[C@@H]2CC(=O)N21	IC50	-	-	Beta-lactamase	TB2	Mycobacterium tuberculosis	-	0.5 µg/mL
COc1c(N2C[C@@H]3CCCN[C@@H]3C2)ccc2c(=O)c(C(=O)O)cn(C3CC3)c12	IC50	-	-	DNA gyrase	-	Streptococcus pneumoniae	-	42.4 µg/mL
CC(C)C[C@H](NC(=O)[C@@H](O)[C@H](N)Cc1ccccc1)C(=O)O	Ki	-	fluorescence	PfM17LAP	-	Plasmodium falciparum	-	0.613 µM
CCCCCn1c(Sc2ccc(C#N)c([N+](=O)[O-])c2)nnc1-c1cccs1	IC50	-	-	Thioredoxin reductase	-	Plasmodium vivax	-	4.5 µM
O=C(NCCNCc1ccc(-c2ccccc2)cc1)c1ccc2nc(NC(=O)C3CCCCC3)sc2c1	IC50	-	-	N-myristoyltransferase	-	Candida albicans	-	0.025 µM
CC1(C)S[C@@H]2[C@H](NC(=O)Cc3ccccc3)C(=O)N2[C@H]1C(=O)O	IC50	-	-	DNA gyrase	J24 (quinolone- penicillin-sensitive)	Streptococcus pneumoniae	-	>200 µg/mL
N[C@@H]1[C@H](O)[C@@H](O)[C@H](O)[C@H]2O[C@@H]12	inhibition	100 µM	-	Amyloglucosidase	-	Aspergillus niger	-	18%
O=C(NCCNCc1ccc2ccccc2c1)c1ccc2nc(NC(=O)C3CCCCC3)oc2c1	IC50	-	-	N-myristoyltransferase	-	Candida albicans	-	0.29 µM
CC(C)CCn1c(Sc2ccc(C#N)c([N+](=O)[O-])c2)nnc1-c1ccc(Cl)cc1	IC50	-	-	Thioredoxin reductase	-	Plasmodium falciparum	-	5.6 µM
O=C(c1ccc(Cl)cc1)c1ccc(OCCN2CCN(CCO)CC2)cc1	inhibition	2 µM	-	Oxidosqualene cyclase	-	Pneumocystis carinii	-	80%
COc1ccc(Br)cc1-c1ccc(C=C2SC(=S)N(c3ccc(C(=O)O)cc3)C2=O)o1	IC50	-	-	NS5 polymerase	-	Bovine viral diarrhea virus	-	≤1 µM
NNC(=O)c1ccncc1	inhibition	1000 µM	-	Alpha-ketoglutarate dehydrogenase	H37RV (INH 10 ug/mL-R)	Mycobacterium tuberculosis	-	0%
C#C[C@H]1O[C@@H](n2cc(C)c(=O)[nH]c2=O)C[C@@H]1O	Ki	-	-	Thymidine kinase	KOS	Herpes simplex virus 1	-	0.09 µM
CC(=O)Nc1ccc(C(=O)O)cc1	inhibition	100 µM	-	DHPS	RH	Toxoplasma gondii	-	67.3%
N#CC1=C(N)Oc2[nH]ncc2C1(c1cc(Cl)cc(Cl)c1)C1CCC1	IC50	-	absorbance	Serine hydroxymethyltransferase	-	Plasmodium falciparum	-	0.35 µM
NC1CCN(c2c(F)cc3c(=O)c(C(=O)O)cn(C4CC4)c3c2Cl)C1	IC50	-	-	Topoisomerase II	-	Streptococcus pneumoniae	-	3.52 µg/mL
Cc1cn([C@@H]2O[C@H](COP(=O)(O)OP(=O)(O)OP(=O)(O)O)[C@@H](O)[C@@H]2F)c(=O)[nH]c1=O	Ki	-	-	DNA polymerase	-	Epstein-Barr virus	-	0.08 µM
Cc1[nH]nc2c1C(C)(c1cc(Cl)cc(Cl)c1)C(C#N)=C(N)O2	Ki	-	absorbance	Serine hydroxymethyltransferase	-	Plasmodium falciparum	-	3.57 µM
N[C@@H]1CN(c2c(F)cc3c(=O)c(C(=O)O)cn([C@@H]4C[C@@H]4F)c3c2Cl)CC12CC2	IC50	-	-	DNA gyrase	J24 (quinolone- penicillin-sensitive)	Streptococcus pneumoniae	-	1.16 µg/mL
O=C(CCn1ncc2c(=O)oc3ccccc3c21)Nc1ccccc1Cl	IC50	-	absorbance	Inosine monophosphate dehydrogenase	-	Cryptosporidium parvum	-	>5 µM
CN(Cc1cnc(N)nc1N)c1ccc(C(=O)NC(CCC(=O)O)C(=O)O)cc1	IC50	-	-	Dihydrofolate reductase	TYPE II	Cryptosporidium parvum	-	0.01 µM
O=C(OC1OC2COC(=O)c3cc(Oc4c(C(=O)OC5C(O)OC6COC(=O)c7cc(O)c(O)c(O)c7-c7c(cc(O)c(O)c7O)C(=O)OC6C5OC(=O)c5cc(O)c(O)c(O)c5)cc(O)c(O)c4O)c(O)c(O)c3-c3c(cc(O)c(O)c3O)C(=O)OC2C(OC(=O)c2cc(O)c(O)c(O)c2)C1O)c1cc(O)c(O)c(O)c1	IC50	-	-	DNA polymerase	-	Epstein-Barr virus	-	97.7 µg/mL
O=C(O)CCc1ccc(O)c(O)c1	IC50	-	flow cytometry	CD4	-	-	-	>20 µM
COc1c(N2CCNC(C)C2)ccc2c(=O)c(C(=O)O)cn(C3CC3)c12	IC50	-	-	Topoisomerase II	-	Streptococcus pneumoniae	-	13.3 µg/mL
FC(F)(F)c1cccc(-c2cncc(N3CCN(c4ccncc4)CC3)n2)c1	IC50	-	-	UL97 kinase	-	Cytomegalovirus	-	<1 µM
Clc1cc(CN2CCCNCCNCCCNCC2)cc(Cl)n1	fold resistance	-	-	CXCR4	-	-	CXCR4-D193N	0.81
CCc1cc(Nc2cc(=O)n(CCCC(=O)NCc3ccco3)c(=O)[nH]2)ccc1C	IC50	-	-	DNA polymerase	-	Staphylococcus aureus	-	0.49 µM
CSc1ccc(-c2cncc(N3CCN(c4ccccc4F)CC3)n2)cc1	inhibition	1 µM	-	UL97 kinase	-	Cytomegalovirus	-	<50%
CCc1cc(Nc2cc(=O)n(CC3CCN(C(=O)c4ccc(Cn5cc(Cl)cn5)o4)CC3)c(=O)[nH]2)ccc1C	IC50	-	-	DNA polymerase	-	Staphylococcus aureus	-	0.008 µM
CC(C)C(=O)[O-]	Ki	-	-	Beta-carbonic anhydrase	Can2	Cryptococcus neoformans	-	3.81 µM
Cc1[nH]nc2c1C(c1cc(C#N)cc(C(F)(F)F)c1)(C1CC=CC1)C(C#N)=C(N)O2	IC50	-	absorbance	Serine hydroxymethyltransferase	-	Plasmodium falciparum	-	0.66 µM
Nc1nc2c(ncn2COC(CO)COP(=O)(O)OP(=O)(O)OP(=O)(O)O)c(=O)[nH]1	Ki	-	-	DNA polymerase	-	Epstein-Barr virus	-	0.08 µM
O=C(O[C@@H]1O[C@@H]2COC(=O)c3cc4c(O)c(O)c3-c3c(cc(O)c(O)c3O)C(=O)O[C@H]2[C@H](OC(=O)c2cc(O)c(O)c(O)c2)[C@H]1OC(=O)c1cc(O)c(O)c(O)c1Oc1cc2c(c(O)c1O)-c1c(cc(O)c(O)c1O)C(=O)OC[C@H]1OC(O)[C@H](OC(=O)c3cc(O)c(O)c(O)c3O4)[C@@H](OC(=O)c3cc(O)c(O)c(O)c3)[C@@H]1OC2=O)c1cc(O)c(O)c(O)c1	inhibition	7.5 µg/mL	-	DNA polymerase	-	Epstein-Barr virus	-	67.3%
O=C(CCNCc1ccc2ccccc2c1)Nc1ccc2nc(NC(=O)C3CCCCC3)sc2c1	IC50	-	-	N-myristoyltransferase	-	Candida albicans	-	0.18 µM
Cc1cn([C@H]2CC[C@@H](CO)O2)c(=O)[nH]c1=O	IC50	-	-	Thymidylate synthetase	KANNO (TK+)	Varicella zoster virus	-	>100 µM
C[C@H](NC(=O)NCc1ccccc1)c1nc2ccsc2c(=O)o1	IC50	-	HPLC	CMV protease	-	Cytomegalovirus	-	>10 µM
CC(=O)c1ccc(N2CCN(c3cncc(-c4cccc(C)c4)n3)CC2)cc1	inhibition	10 µM	-	UL97 kinase	-	Cytomegalovirus	-	>15%
CCc1cc(Nc2cc(=O)n(CCCC(=O)N(C)Cc3ccco3)c(=O)[nH]2)ccc1C	IC50	-	-	DNA polymerase	-	Staphylococcus aureus	-	0.07 µM
CC1(c2ccc(OCC#N)c(Cl)c2Cl)C(=O)c2ccccc2C1=O	IC50	-	-	Geranylgeranyl-protein transferase I	-	Candida albicans	-	0.07 µM
O=C(Nc1nc2ccc(NC(=O)[C@@H]3CCC[C@H](NCc4cccc5ccccc45)C3)cc2s1)C1CCCC1	IC50	-	-	N-myristoyltransferase	-	Candida albicans	-	0.00049 µM
COc1ccc(-c2ccc(C=C3SC(=S)N(c4ccc(C(=O)O)cc4)C3=O)o2)cc1OC	IC50	-	-	NS5 polymerase	-	Bovine viral diarrhea virus	-	≤1 µM

Repeating the final 4 entries:

structure | read-out | dose | method | target | strain or isolate | agent | changes | result
CCc1cc(Nc2cc(=O)n(CCCC(=O)N(C)Cc3ccco3)c(=O)[nH]2)ccc1C | IC50 | - | - | DNA polymerase | - | Staphylococcus aureus | - | 0.07 µM
CC1(c2ccc(OCC#N)c(Cl)c2Cl)C(=O)c2ccccc2C1=O | IC50 | - | - | Geranylgeranyl-protein transferase I | - | Candida albicans | - | 0.07 µM
O=C(Nc1nc2ccc(NC(=O)[C@@H]3CCC[C@H](NCc4cccc5ccccc45)C3)cc2s1)C1CCCC1 | IC50 | - | - | N-myristoyltransferase | - | Candida albicans | - | 0.00049 µM
COc1ccc(-c2ccc(C=C3SC(=S)N(c4ccc(C(=O)O)cc4)C3=O)o2)cc1OC | IC50 | - | - | NS5 polymerase | - | Bovine viral diarrhea virus | - | ≤1 µM